PubChem BioAssay AID1259414, Drosophila RNAi Screening Center, 2018
The screen tested about 24,000 reagents; shown is an unselected part of those that have a named target and a result. Of all reagents, about 1,210 (5%) were called active. 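Inactive calls also include excluded dsRNAs with several or no targets, genes unexpressed in JW18, and well A1, regardless of score.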 Reagents against one gene are numbered here. Names joined by + are all predicted targets of the reagent.

Purpose: 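Genome-wide screen for host control of endosymbiont load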 (primary screen)
System: Drosophila JW18 cells infected with Wolbachia
Reagents: long dsRNA against Drosophila genes, 0.25 µg dsRNA per well of a 384-well plate
Duration: 5 days
Conditions: cells persistently infected with Wolbachia before knock-down; no added drug
Read-out: 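Imaged fluorescence in situ signal for Wolbachia 23S rRNA per DAPI-counted host cell, given as a robust z-score within each plate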
Reading the numbers: Wolbachia per cell robust z: higher = more Wolbachia per host cell than the plate typical
Active means: 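Hit when robust z is 1.5 or more, or -1.5 or less, in at least two of three replicates; excludes dsRNAs with several or no targets, genes not expressed in JW18 and well A1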

Sec31 (Secretory 31) #1 | Wolbachia per cell robust z, rep 1 = -0.372; Wolbachia per cell robust z, rep 2 = 0.565; Wolbachia per cell robust z, rep 3 = 1.19; Call = inactive
Sec31 (Secretory 31) #2 | Wolbachia per cell robust z, rep 1 = 0.212; Wolbachia per cell robust z, rep 2 = 0.684; Wolbachia per cell robust z, rep 3 = 0.308; Call = inactive
Sirt6 (Sirtuin 6) #1 | Wolbachia per cell robust z, rep 1 = -0.553; Wolbachia per cell robust z, rep 2 = -4.58; Wolbachia per cell robust z, rep 3 = -0.34; Call = inactive
Sirt6 (Sirtuin 6) #2 | Wolbachia per cell robust z, rep 1 = 0.253; Wolbachia per cell robust z, rep 2 = 0.547; Wolbachia per cell robust z, rep 3 = 0.364; Call = inactive
CG14377 + CG14374 | Wolbachia per cell robust z, rep 1 = 1.69; Wolbachia per cell robust z, rep 2 = -0.0379; Wolbachia per cell robust z, rep 3 = -0.33; Call = inactive
Vha13 (Vacuolar H[+] ATPase 13kD subunit) | Wolbachia per cell robust z, rep 1 = -1.36; Wolbachia per cell robust z, rep 2 = -2.3; Wolbachia per cell robust z, rep 3 = -0.895; Call = inactive
CG15525 #1 | Wolbachia per cell robust z, rep 1 = 0.434; Wolbachia per cell robust z, rep 2 = 0.453; Wolbachia per cell robust z, rep 3 = 0.166; Call = inactive
CG15525 #2 | Wolbachia per cell robust z, rep 1 = 0.168; Wolbachia per cell robust z, rep 2 = 0.973; Wolbachia per cell robust z, rep 3 = 0.641; Call = inactive
Sfxn1-3 (Sideroflexin 1/3) | Wolbachia per cell robust z, rep 1 = 1.18; Wolbachia per cell robust z, rep 2 = 1.05; Wolbachia per cell robust z, rep 3 = -5.85; Call = inactive
Rsod (Related to Sod) | Wolbachia per cell robust z, rep 1 = -0.272; Wolbachia per cell robust z, rep 2 = -0.000281; Wolbachia per cell robust z, rep 3 = -0.519; Call = inactive
cta + CR40005 | Wolbachia per cell robust z, rep 1 = -0.243; Wolbachia per cell robust z, rep 2 = 0.349; Wolbachia per cell robust z, rep 3 = -1.13; Call = inactive
CG3955 | Wolbachia per cell robust z, rep 1 = -0.833; Wolbachia per cell robust z, rep 2 = -0.583; Wolbachia per cell robust z, rep 3 = -1.27; Call = inactive

Just “Wolbachia per cell robust z, rep 3”, for 2 of the entries above:
CG14377 + CG14374 = -0.33
Vha13 (Vacuolar H[+] ATPase 13kD subunit) = -0.895
